A mixed list of measured activities; the numbers were collected in NIAID ChemDB.

All rows: tests on isolated targets

An empty or dashed field is not shown. ICn is the concentration giving n% inhibition. Two numbers with a dash give a range or band. Fold resistance has wild type as its base. Percent inhibition refers to the dose given; in toxicity tests it is the harm to the cells. Rows are shuffled and stem from different studies.

smiles	target	read-out	species	changes	tested at	method	strain or isolate	value
CC1(C)N=C(N)N=C(N)N1c1ccc(-c2ccc3c(Cl)c(Cl)ccc3c2)cc1	DHFR	IC50	Toxoplasma gondii	-	-	-	-	1.4 µM
Nc1nc2c(ncn2CC[C@@H](CO)COP(=O)(O)OP(=O)(O)OP(=O)(O)O)c(=O)[nH]1	DNA polymerase	Ki	Herpes simplex virus 1	-	-	-	-	8.5 µM
CCCC(=O)C1C(=O)N(CC(=O)N2CCCC2C(=O)O)C(=O)c2ccccc21	Protease	IC50	Rhinovirus	-	-	-	Serotype 2	>100 µM
Nc1nc(N)c2ccc(F)cc2n1	DHFR	IC50	Pneumocystis carinii	-	-	-	-	41 µM
Cc1cc(C)cc(-c2cncc(N3CCN(c4cccc(C)c4C)CC3)n2)c1	UL97 kinase	inhibition	Cytomegalovirus	-	10 µM	-	-	>15%
CSCCCN1C(=O)Cc2ccccc2C1=O	Protease	IC50	Rhinovirus	-	-	-	Serotype 2	>200 µM
Nc1cc(CCc2ccc(F)cc2)nc(N)n1	Dihydrofolate reductase	IC50	Cryptosporidium parvum	-	-	-	TYPE I	>1000 µM
C[C@H](NC(=O)NCc1ccccc1)c1nc2ccsc2c(=O)o1	CMV protease	IC50	Cytomegalovirus	-	-	HPLC	-	>10 µM
CC(C)C(=O)N[C@H]1C([C@H](C)[C@@H](O)CO)OC(C(=O)O)=C[C@@H]1NS(=O)(=O)C(Cl)Cl	Neuraminidase	IC50	Parainfluenza virus	-	-	-	TYPE 3	4.3 µM
C/C(=C\c1coc2nc(N)nc(N)c12)c1cccc(Cl)c1	Dihydrofolate reductase	IC50	Toxoplasma gondii	-	-	-	-	1.5 µM
C/C(=N\NC(=S)NNC(=S)Nc1cccc(C(F)(F)F)c1)c1ccccn1	Ribonucleotide reductase	IC50	Herpes simplex virus 1	-	-	-	-	>5 µM
O=c1nc[nH]c(=O)c2c1ncn2[C@H]1O[C@@H](CO)[C@H](O)[C@@H]1O	NTPase/helicase	IC50	West Nile virus	-	-	helicase activity	-	>500 µM
N[C@@H]1CN(c2c(F)cc3c(=O)c(C(=O)O)cn([C@@H]4C[C@@H]4F)c3c2Cl)CC12CC2	DNA gyrase	IC50	Streptococcus pneumoniae	-	-	-	J24 (quinolone- penicillin-sensitive)	1.16 µg/mL
CN(C)c1cccc2c(S(=O)(=O)Nc3ccc(NC(=O)C(C)(C)CO)cc3)cccc12	Terminase	IC50	Mouse cytomegalovirus	-	-	-	M89/M104-WILD TYPE	0.03 µM
CCCCCCCN(C(=O)NCc1ccccc1)[C@@H](CC(=O)OCC)C1O[C@@H]2OC(C)(C)O[C@@H]2[C@H]1OC	Alpha-glucosidase	inhibition	Mycobacterium aurum	-	100 µM	-	-	13.7%
COc1c(N2CCNC(C)C2)c(F)cc2c(=O)c(C(=O)O)cn(C3CC3)c12	Topoisomerase II	IC50	Streptococcus pneumoniae	-	-	-	-	1.61 µg/mL
CC(=O)N[C@H]1[C@H]([C@H](N)[C@H](O)CO)OC(C(=O)[O-])=C[C@@H]1O	Neuraminidase	IC50	Parainfluenza virus	-	-	fluorescence	TYPE 3	2100 µM
NC1CCN(c2c(F)cc3c(=O)c(C(=O)O)cn(C4CC4)c3c2Cl)C1	Topoisomerase II	IC50	Streptococcus pneumoniae	-	-	-	-	3.52 µg/mL
C/C(=N\NC(=S)NNC(=S)Nc1cccc(I)c1)c1ccccn1	Ribonucleotide reductase	IC50	Herpes simplex virus 1	-	-	-	-	>5 µM
CN(Cc1cnc(N)nc1N)c1ccc(C(=O)NC(CCC(=O)O)C(=O)O)cc1	Dihydrofolate reductase	IC50	Cryptosporidium parvum	-	-	-	TYPE II	0.01 µM
C[C@H](NC(=O)OC(C)(C)C)c1nc2ccsc2c(=O)o1	CMV protease	IC50	Cytomegalovirus	-	-	HPLC	-	>10 µM
CO[C@H](C(=O)NO)[C@@H](CC(C)C)C(=O)N[C@H](C(=O)OC1CCCC1)c1ccccc1	PfM1AAP	Ki	Plasmodium falciparum	-	-	fluorescence	-	1.4 µM
C[C@H]1NCc2cc(-c3ccc4c(=O)c(C(=O)O)cn(C5CC5)c4c3OC(F)F)ccc21	DNA gyrase	IC50	Streptococcus pneumoniae	-	-	-	-	30.6 µg/mL
CC(C)c1cc(C(C)C)c(C(=O)Nc2nnc(NCc3ccc4c(c3)OCO4)s2)c(C(C)C)c1	Polymerase	IC50	Human cytomegalovirus	-	-	-	-	>25 µM
CCCCCCCC/C=C/CC/C=C/[C@H]1C[C@H]([C@](O)(CC(=O)O[C@@H](C(=O)O)[C@H](CC(=O)O)C(=O)O)C(=O)O)C(=O)O1	Geranylgeranyltransferase I	IC50	Cryptococcus neoformans	-	-	-	-	3 µM
Cc1cc(S(=O)(=O)Nc2c(C(=O)O)sc3c2Sc2ccc(Cl)cc2C3)c(C)cc1Cl	NS3 ATPase	IC50	Hepatitis C virus	-	-	-	-	5–20 µM
CCCCCCC1N=C(N)N=C(N)N1c1ccc(Cl)cc1	Dihydrofolate reductase	IC50	Cryptosporidium parvum	-	-	-	TYPE I	200 µM
C[C@H]1NCc2cc(-c3c(F)cc4c(=O)c(C(=O)O)cn(C5CC5)c4c3OC(F)F)ccc21	DNA gyrase	IC50	Streptococcus pneumoniae	-	-	-	-	11.6 µg/mL
CC1(C)N=C(N)N=C(N)N1c1ccc(CN2C(N)=NC(N)NC2(C)C)cc1	DHFR	IC50	Toxoplasma gondii	-	-	-	-	0.017 µM
OCc1ccc(-c2cncc(N3CCN(c4cccc(C(F)(F)F)c4)CC3)n2)cc1	UL97 kinase	IC50	Cytomegalovirus	-	-	-	-	<100 µM
CCOC(=O)CCCN1C(=O)Cc2ccccc2C1=O	Protease	IC50	Rhinovirus	-	-	-	Serotype 2	>200 µM
CCCCCCCCCCCCC/C=C/[C@@H](O)[C@H](CO[C@@H]1O[C@H](CO)[C@H](O)[C@H](OS(=O)(=O)O)[C@H]1O)NC(=O)CCCCCCCCCCCCCCCCCCCCCCC	Sialidase	inhibition	Influenza A virus	-	200 µM	-	H3N2 A/HONG KONG/1/68	42.2%
CC(C)c1cc(C(C)C)c(C(=O)Nc2nnc(NCCCNC3CCCCC3)s2)c(C(C)C)c1	Polymerase	inhibition	Human cytomegalovirus	-	25 µM	-	-	49.5%
COc1cccc2nc(N)nc(N)c12	DHFR	IC50	Pneumocystis carinii	-	-	-	-	4.5 µM
CO[C@H]1/C=C/O[C@@]2(C)Oc3c(C)c(O)c4c(=O)c(c5oc6cc(N7CCN(CC(C)C)CC7)cc(=O)c6nc5c4c3=C2O)NC(=O)/C(C)=C\C=C\[C@H](C)[C@H](O)[C@@H](C)[C@@H](O)[C@@H](C)[C@H](OC(C)=O)[C@@H]1C	DNA polymerase	IC50	Mycobacterium fortuitum	-	-	-	F-65	>10 µg/mL
Clc1cc(CN2CCCNCCNCCCNCC2)cc(Cl)n1	CXCR4	fold resistance	-	CXCR4-D171N	-	-	-	12.6
CC1(C)OC2OC([C@@H]3CC(=O)N(Cc4ccccc4)C(=O)N3C3CC3)[C@H](Oc3ccccc3)C2O1	Alpha-glucosidase	inhibition	Mycobacterium aurum	-	100 µM	-	-	61.8%
O=C(CCCCCl)Nc1nnc(NCCCN2CCCC2=O)s1	Polymerase	IC50	Human cytomegalovirus	-	-	-	-	>25 µM
Cc1ccccc1S(=O)(=O)Nc1cc(C(=O)c2ccccc2)sc1C(=O)O	NS3 ATPase	IC50	Hepatitis C virus	-	-	-	-	5–20 µM
NC(=O)c1cccc(-c2cncc(N3CCN(c4ccncc4)CC3)n2)c1	UL97 kinase	IC50	Cytomegalovirus	-	-	-	-	<10 µM
NC1CCN(c2nc3c(cc2F)c(=O)c(C(=O)O)cn3-c2ccc(F)cc2F)C1	Topoisomerase IV	IC50	Streptococcus pneumoniae	-	-	-	J24 (quinolone- penicillin-sensitive)	5.97 µg/mL
Fc1ccc(-c2cncc(N3CCN(c4ccc(C(F)(F)F)cc4)CC3)n2)cc1	UL97 kinase	IC50	Cytomegalovirus	-	-	-	-	<100 µM
C/C(=C\c1coc2nc(N)nc(N)c12)c1ccccc1	Dihydrofolate reductase	IC50	Toxoplasma gondii	-	-	-	-	30 µM
CCCCCCCC/C=C\CCCCCCCCN(C(=O)NCc1ccccc1)[C@@H](CC(=O)OCC)C1O[C@@H]2OC(C)(C)O[C@@H]2[C@H]1Oc1ccccc1	Alpha-glucosidase	inhibition	Mycobacterium aurum	-	100 µM	-	-	12.3%
C/C(=N\NC(=S)NNC(=S)NCCN1CCOCC1)c1ccccn1	Ribonucleotide reductase	IC50	Herpes simplex virus 1	-	-	-	-	>5 µM
CSCCCN1C(=O)c2ccccc2C(CC(=O)c2ccccc2)C1=O	Protease	IC50	Rhinovirus	-	-	-	Serotype 14	>200 µM
O=C(Nc1nnc(NCc2ccc3c(c2)OCO3)s1)c1ccc(F)cc1F	Polymerase	IC50	Human cytomegalovirus	-	-	-	-	>25 µM
Cc1ccc(Cl)c2nc(N3CCN(C(=O)c4ccc([N+](=O)[O-])o4)CC3)sc12	Thioredoxin reductase	IC50	Plasmodium berghei	-	-	-	-	<4 µM
C/C(=C/c1coc2nc(N)nc(N)c12)c1ccc(Cl)cc1	Dihydrofolate reductase	IC50	Toxoplasma gondii	-	-	-	-	11 µM
C/C=C/c1cn([C@H]2C[C@H](O)[C@@H](CO)O2)c(=O)[nH]c1=O	Thymidine kinase	inhibition	Herpes simplex virus 1	-	10 µM	-	91075	5%
CC(=O)N(Cc1ccc(C(F)(F)F)cc1)c1cc(-c2ccccc2)sc1C(=O)O	NS3 ATPase	IC50	Hepatitis C virus	-	-	-	-	5–20 µM
Nc1nc2c(ncn2[C@H]2CO[C@@H](COP(=O)(O)OP(=O)(O)OP(=O)(O)O)O2)c(=O)[nH]1	Reverse transcriptase	Ki	HIV	RT-M184V	-	radiometric	-	0.06 µM
NC1CCN(c2ccc3c(=O)c(C(=O)O)cn(C4CC4)c3c2Cl)C1	DNA gyrase	IC50	Streptococcus pneumoniae	-	-	-	-	37.7 µg/mL
Nc1nc(N)c(CCCOc2ccc(NC(=O)c3cccc(S(=O)(=O)F)c3)cc2Cl)c(N)n1	Dihydrofolate reductase	IC50	Cryptosporidium parvum	-	-	-	TYPE II	20 µM
CCCCCn1c(Sc2ccc(C#N)c([N+](=O)[O-])c2)nnc1-c1cccs1	Thioredoxin reductase	IC50	Plasmodium falciparum	-	-	-	-	5.2 µM
CCCCCCCCCCCCN(C(=O)Nc1cccc(C(C)=O)c1)[C@@H](CC(=O)OCC)C1O[C@@H]2OC(C)(C)O[C@@H]2[C@H]1Oc1ccccc1	Alpha-glucosidase	inhibition	Mycobacterium aurum	-	100 µM	-	-	11.9%
COc1ccccc1N1CCN(c2cncc(-c3ccccc3C(C)=O)n2)CC1	UL97 kinase	inhibition	Cytomegalovirus	-	10 µM	-	-	>15%
N#Cc1ccc(C(=O)Nc2nnc(NCc3cccs3)s2)cc1	Polymerase	IC50	Human cytomegalovirus	-	-	-	-	>25 µM
CC(C)CCn1c(Sc2ccc(C#N)c([N+](=O)[O-])c2)nnc1-c1ccc(Cl)cc1	Thioredoxin reductase	IC50	Plasmodium vivax	-	-	-	-	<4 µM
OCCN1CCN(CCOc2ccc(-c3ccccc3)cc2)CC1	Oxidosqualene cyclase	inhibition	Pneumocystis carinii	-	2 µM	-	-	20%
O=c1[nH]c(=O)n([C@@H]2O[C@H](CO)[C@@H](O)[C@@H]2O)cc1/C=C/Br	Thymidine kinase	inhibition	Herpes simplex virus 1	-	100 µM	-	91075	14%
C=CCN(C(=O)Cc1ccc(Cl)cc1)c1cc(-c2ccccc2)sc1C(=O)O	NS3 ATPase	IC50	Hepatitis C virus	-	-	-	-	5–20 µM
O=C(CCn1ncc2c(=O)oc3ccccc3c21)Nc1ccccc1Cl	Inosine monophosphate dehydrogenase	IC50	Cryptosporidium parvum	-	-	absorbance	-	>5 µM
Fc1cc(-c2cncc(N3CCN(c4ccccc4)CC3)n2)ccc1-c1ccccc1	UL97 kinase	IC50	Cytomegalovirus	-	-	-	-	<100 µM
CSc1cccc2nc(N)nc(N)c12	DHFR	IC50	Pneumocystis carinii	-	-	-	-	1.1 µM
O=C(/C=C/c1ccccc1Cl)Nc1nnc(NCCNc2ccccc2)s1	Polymerase	IC50	Human cytomegalovirus	-	-	-	-	>25 µM
COc1ccc(/C(C)=C\c2coc3nc(N)nc(N)c23)c(OC)c1	Dihydrofolate reductase	IC50	Toxoplasma gondii	-	-	-	-	11 µM
CCOc1ccc(-c2cncc(N3CCN(c4ccccc4)CC3)n2)cc1	UL97 kinase	IC50	Cytomegalovirus	-	-	-	-	<10 µM
CC(Cc1coc2nc(N)nc(N)c12)c1ccc(-c2ccccc2)cc1	Dihydrofolate reductase	IC50	Toxoplasma gondii	-	-	-	-	7 µM
Nc1nc(N)c(N=C/C=C/c2ccc([N+](=O)[O-])cc2)c(-c2ccccc2)n1	Dihydrofolate reductase	IC50	Cryptosporidium parvum	-	-	-	TYPE II	>100 µM
C/C(=N\NC(=S)NNC(=S)Nc1ccccc1)c1ccccn1	Ribonucleotide reductase	IC50	Herpes simplex virus 1	-	-	-	-	>5 µM
C/C=C/c1cn([C@@H]2O[C@H](CO)[C@@H](O)[C@@H]2O)c(=O)[nH]c1=O	Thymidine kinase	inhibition	Herpes simplex virus 1	-	100 µM	-	C42	87%
Cc1ccc(C(=O)Nc2nnc(NCCCCc3ccccc3)s2)cc1	Polymerase	IC50	Human cytomegalovirus	-	-	-	-	>25 µM